Values quoted from earlier work in article PMC12707294 (Analytical chemistry, 2025).
Like-named read-outs stand apart in the source and are kept apart here.

Sequences of proteins named here, by UniProt entry; tags and fusion partners are left off. Residues count along the entry.
UniProt P01556, 22-124 limits assumed: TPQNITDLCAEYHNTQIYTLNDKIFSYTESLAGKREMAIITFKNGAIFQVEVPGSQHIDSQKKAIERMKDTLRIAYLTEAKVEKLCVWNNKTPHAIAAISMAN

Columns and labels:
[1] = molecular target: T1, Cholera toxin B subunit homopentamer (CTB5) (Vibrio cholerae serotype O1, UniProt P01556); conditions: read-out: Kd,int; cited from earlier work
[2] = molecular target: T1, Cholera toxin B subunit homopentamer (CTB5); conditions: read-out: Intrinsic Kd; cited from earlier work

In the case of GM1 pentasaccharide [GM1os], the Kd [1] is given as 0.156 ± 0.007 µM and the Kd [2] is given as 0.31 ± 0.02 µM.
